Like-named read-outs stand apart in the source and are kept apart here.
B1: GST-PDZ-73 PDZ domain 2 fusion protein (protein)
chain: MSPILGYWKIKGLVQPTRLLLEYLEEKYEEHLYERDEGDKWRNKKFELGLEFPNLPYYIDGDVKLTQSMAIIRYIADKHNMLGGCPKERAEISMLEGAVLDIRYGVSRIAYSKDFETLKVDFLSKLPEMLKMFEDRLCHKTYLNGDHVTHPDFMLYDALDVVLYMDPMCLDAFPKLVCFKKRIEAIPQIDKYLKSSKYIAWPLQGWQATFGGGDHPPKSDLIEGRKVFISLVGSRGLGCSISSGPIQKPGIFISHVKPGSLSAEVGLEIGDQIVEVNGVDFSNLDHKEAVNVLKSSRSLTISIVAAAG
B2: GST-novel PDZ gene PDZ domain 1 fusion protein (protein)
chain: MSPILGYWKIKGLVQPTRLLLEYLEEKYEEHLYERDEGDKWRNKKFELGLEFPNLPYYIDGDVKLTQSMAIIRYIADKHNMLGGCPKERAEISMLEGAVLDIRYGVSRIAYSKDFETLKVDFLSKLPEMLKMFEDRLCHKTYLNGDHVTHPDFMLYDALDVVLYMDPMCLDAFPKLVCFKKRIEAIPQIDKYLKSSKYIAWPLQGWQATFGGGDHPPKSDLIEGRSVRVEKSPAGRLGFSVRGGSEHGLGIFVSKVEEGSSAERAGLCVGDKITEVNGLSLESTTMGSAVKVLTSSSRLHMMVRRMGR
B3: GST-KIAA0973 #148.5 PDZ domain 1 fusion protein (protein)
chain: MSPILGYWKIKGLVQPTRLLLEYLEEKYEEHLYERDEGDKWRNKKFELGLEFPNLPYYIDGDVKLTQSMAIIRYIADKHNMLGGCPKERAEISMLEGAVLDIRYGVSRIAYSKDFETLKVDFLSKLPEMLKMFEDRLCHKTYLNGDHVTHPDFMLYDALDVVLYMDPMCLDAFPKLVCFKKRIEAIPQIDKYLKSSKYIAWPLQGWQATFGGGDHPPKSDLIEGRGLRSPITIQRSGKKYGFTLRAIRVYMGDTDVYSVHHIVWHVEEGGPAQEAGLCAGDLITHVNGEPVHGMVHPEVVELILKSGNKVAVTTTPFE
B4: GST-MUPP1 PDZ domain 7 fusion protein (protein)
chain: MSPILGYWKIKGLVQPTRLLLEYLEEKYEEHLYERDEGDKWRNKKFELGLEFPNLPYYIDGDVKLTQSMAIIRYIADKHNMLGGCPKERAEISMLEGAVLDIRYGVSRIAYSKDFETLKVDFLSKLPEMLKMFEDRLCHKTYLNGDHVTHPDFMLYDALDVVLYMDPMCLDAFPKLVCFKKRIEAIPQIDKYLKSSKYIAWPLQGWQATFGGGDHPPKSDLIEGRRVELWREPSKSLGISIVGGRGMGSRLSNGEVMRGIFIKHVLEDSPAGKNGTLKPGDRIVEVDGMDLRDASHEQAVEAIRKAGNPVVFMVQSII
B5: GST-MAGI 1 PDZ domain 4 fusion protein (protein)
chain: MSPILGYWKIKGLVQPTRLLLEYLEEKYEEHLYERDEGDKWRNKKFELGLEFPNLPYYIDGDVKLTQSMAIIRYIADKHNMLGGCPKERAEISMLEGAVLDIRYGVSRIAYSKDFETLKVDFLSKLPEMLKMFEDRLCHKTYLNGDHVTHPDFMLYDALDVVLYMDPMCLDAFPKLVCFKKRIEAIPQIDKYLKSSKYIAWPLQGWQATFGGGDHPPKSDLIEGRPDYQEQDIFLWRKETGFGFRILGGNEPGEPIYIGHIVPLGAADTDGRLRSGDELICVDGTPVIGKSHQLVVQLMQQAAKQGHVNLTVRRKVVFAVPKTENSS
B6: GST-SITAC-18 PDZ domain 2 fusion protein (protein)
chain: MSPILGYWKIKGLVQPTRLLLEYLEEKYEEHLYERDEGDKWRNKKFELGLEFPNLPYYIDGDVKLTQSMAIIRYIADKHNMLGGCPKERAEISMLEGAVLDIRYGVSRIAYSKDFETLKVDFLSKLPEMLKMFEDRLCHKTYLNGDHVTHPDFMLYDALDVVLYMDPMCLDAFPKLVCFKKRIEAIPQIDKYLKSSKYIAWPLQGWQATFGGGDHPPKSDLIEGRTVTMHKDSMGHVGFVIKKGKIVSLVKGSSAARNGLLTNHYVCEVDGQNVIGLKDKKIMEILATAGNVVTLTIIPSV
B7: GST-NOS1 PDZ domain 1 fusion protein (protein)
chain: MSPILGYWKIKGLVQPTRLLLEYLEEKYEEHLYERDEGDKWRNKKFELGLEFPNLPYYIDGDVKLTQSMAIIRYIADKHNMLGGCPKERAEISMLEGAVLDIRYGVSRIAYSKDFETLKVDFLSKLPEMLKMFEDRLCHKTYLNGDHVTHPDFMLYDALDVVLYMDPMCLDAFPKLVCFKKRIEAIPQIDKYLKSSKYIAWPLQGWQATFGGGDHPPKSDLIEGRIQPNVISVRLFKRKVGGLGFLVKERVSKPPVIISDLIRGGAAEQSGLIQAGDIILAVNGRPLVDLSYDSALEVLRGIASETHVVLILRGP
B8: GST-KIAA1284 PDZ domain 1 fusion protein (protein)
chain: MSPILGYWKIKGLVQPTRLLLEYLEEKYEEHLYERDEGDKWRNKKFELGLEFPNLPYYIDGDVKLTQSMAIIRYIADKHNMLGGCPKERAEISMLEGAVLDIRYGVSRIAYSKDFETLKVDFLSKLPEMLKMFEDRLCHKTYLNGDHVTHPDFMLYDALDVVLYMDPMCLDAFPKLVCFKKRIEAIPQIDKYLKSSKYIAWPLQGWQATFGGGDHPPKSDLIEGRKDVNVYVNPKKLTVIKAKEQLKLLEVLVGIIHQTKWSWRRTGKQGDGERLVVHGLLPGGSAMKSGQVLIGDVLVAVNDVDVTTENIERVLSCIPGPMQVKLTFENAYDVKRET
B9: GST-SSTRIP PDZ domain 1 fusion protein (protein)
chain: MSPILGYWKIKGLVQPTRLLLEYLEEKYEEHLYERDEGDKWRNKKFELGLEFPNLPYYIDGDVKLTQSMAIIRYIADKHNMLGGCPKERAEISMLEGAVLDIRYGVSRIAYSKDFETLKVDFLSKLPEMLKMFEDRLCHKTYLNGDHVTHPDFMLYDALDVVLYMDPMCLDAFPKLVCFKKRIEAIPQIDKYLKSSKYIAWPLQGWQATFGGGDHPPKSDLIEGRLKEKTVLLQKKDSEGFGFVLRGAKAQTPIEEFTPTPAFPALQYLESVDEGGVAWRAGLRMGDFLIEVNGQNVVKVGHRQVVNMIRQGGNTLMVKVVMVTRHPDMDEAVQ
B10: GST-Shank 1 PDZ domain 1 fusion protein (protein)
chain: MSPILGYWKIKGLVQPTRLLLEYLEEKYEEHLYERDEGDKWRNKKFELGLEFPNLPYYIDGDVKLTQSMAIIRYIADKHNMLGGCPKERAEISMLEGAVLDIRYGVSRIAYSKDFETLKVDFLSKLPEMLKMFEDRLCHKTYLNGDHVTHPDFMLYDALDVVLYMDPMCLDAFPKLVCFKKRIEAIPQIDKYLKSSKYIAWPLQGWQATFGGGDHPPKSDLIEGREEKTVVLQKKDNEGFGFVLRGAKADTPIEEFTPTPAFPALQYLESVDEGGVAWQAGLRTGDFLIEVNNENVVKVGHRQVVNMIRQGGNHLVLKVVTVTRNLDPDDTARKKA
B11: GST-KIAA0147 PDZ domain 4 fusion protein (protein)
chain: MSPILGYWKIKGLVQPTRLLLEYLEEKYEEHLYERDEGDKWRNKKFELGLEFPNLPYYIDGDVKLTQSMAIIRYIADKHNMLGGCPKERAEISMLEGAVLDIRYGVSRIAYSKDFETLKVDFLSKLPEMLKMFEDRLCHKTYLNGDHVTHPDFMLYDALDVVLYMDPMCLDAFPKLVCFKKRIEAIPQIDKYLKSSKYIAWPLQGWQATFGGGDHPPKSDLIEGRELCIQKAPGERLGISIRGGARGHAGNPRDPTDEGIFISKVSPTGAAGRDGRLRVGLRLLEVNQQSLLGLTHGEAVQLLRSVGDTLTVLVCDGFEA
B12: GST-KIAA1526 #126.1 PDZ domain 2 fusion protein (protein)
chain: MSPILGYWKIKGLVQPTRLLLEYLEEKYEEHLYERDEGDKWRNKKFELGLEFPNLPYYIDGDVKLTQSMAIIRYIADKHNMLGGCPKERAEISMLEGAVLDIRYGVSRIAYSKDFETLKVDFLSKLPEMLKMFEDRLCHKTYLNGDHVTHPDFMLYDALDVVLYMDPMCLDAFPKLVCFKKRIEAIPQIDKYLKSSKYIAWPLQGWQATFGGGDHPPKSDLIEGRKVNLVLGDGRSLGLTIRGGAEYGLGIYITGVDPGSEAEGSGLKVGDQILEVNWRSFLNILHDEAVRLLKSSRHLILTVKDVGR

Tests used:
[1] = target: HPV16 E6 PDZ ligand peptide (biotinylated C-terminal peptide of the E6 protein of HPV 16) (human papillomavirus 16); assay: G assay ELISA, signal over GST-only well
[2] = target: HPV16 E6 PDZ ligand peptide (biotinylated C-terminal peptide of the E6 protein of HPV 16) (human papillomavirus 16); assay: G assay ELISA, immobilised GST-PDZ, 10 uM biotinylated peptide
[3] = target: T1, HPV16 E6 PDZ ligand peptide (biotinylated C-terminal peptide of the E6 protein of HPV 16) (human papillomavirus 16); assay: G assay ELISA, signal over GST-only well; remark: listed apart in the source
[4] = target: T1, HPV16 E6 PDZ ligand peptide …; assay: G assay ELISA, immobilised GST-PDZ, 10 uM biotinylated peptide; remark: listed apart in the source

| Binder | OD S/N [1] | Ave OD [2] [A450 nm] | OD S/N [3] | Ave OD [4] [A450 nm] |
| --- | --- | --- | --- | --- |
| B1 | 1.95 | 0.561 | – | – |
| B2 | 1.89 | 0.545 | – | – |
| B3 | – | – | 2.71 | 0.498 |
| B4 | – | – | 1.61 | 0.498 |
| B5 | – | – | 1.58 | 0.496 |
| B6 | – | – | 2.46 | 0.484 |
| B7 | – | – | 2.88 | 0.477 |
| B8 | – | – | 2.72 | 0.473 |
| B9 | – | – | 3.28 | 0.467 |
| B10 | – | – | 2.53 | 0.466 |
| B11 | – | – | 2.17 | 0.464 |
| B12 | 1.87 | 0.463 | – | – |

Reference: patent publication US20040229298A1
